PubChem BioAssay AID504761 – Drosophila RNAi Screening Center – 2011
The deposit covers about 22,000 reagents; this is an unselected part of those with a known target gene and a result. Over the whole deposit, 116 (0.52%) got an active call. 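Calls depend on retest data that are not deposited; infection was ranked per plate without normalising between plates; the unit of the infection score is not given.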 The raw values are shown without normalisation. Unmarked entries are inactive. Not all columns of the deposit are shown. No sequences are given here. The record does not give: the amount of reagent, the time to read-out.

Aim: 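Fly genes whose silencing reduces dengue virus type 2 infection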 (primary screen)
System: D.Mel-2 cells from Drosophila
Reagent: long dsRNA against Drosophila genes
Challenge: infection with dengue virus type 2; dose and infection time not stated
Measured: 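Per well on two replicate plates, imaging gave the percent of cells positive for viral envelope protein, ranked by infection, and a nuclear count of cells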
Scale: infection score: higher = more virus-infected cells; cell count: higher = more cells in the well
Hit rule: 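Very low infection ranking in both replicate wells (chance probability at most 0.065), then a retest showing infection dropped 1.5-fold or more at p below 0.05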
Meaning of the calls: active = confirmed: knock-down lowers infection; inactive = not picked or not confirmed

After knock-down of gb (genderblind) [DRSC15961] the results were infection score, replicate 1 = 2.33; cell count, replicate 1 = 6320.
Against gb (genderblind) [DRSC24834], the values are infection score, replicate 1 = 15.8; cell count, replicate 1 = 6547.
Cyp313b1 (Cytochrome P450 313b1) [DRSC16629] scored infection score, replicate 1 = 13.1; cell count, replicate 1 = 6476.
Against fog (folded gastrulation) [DRSC20646], the values are infection score, replicate 1 = 5.92; cell count, replicate 1 = 6521.
LysD (Lysozyme D) [DRSC26238] showed infection score, replicate 1 = 13.1; cell count, replicate 1 = 5201.
CG12490 [DRSC04123] scored infection score, replicate 1 = 8.35; cell count, replicate 1 = 6733.
After knock-down of SCCRO (Squamous cell carcinoma-related oncogene) [DRSC10844] the results were infection score, replicate 1 = 2.47; cell count, replicate 1 = 6589.
After knock-down of SCCRO (Squamous cell carcinoma-related oncogene) [DRSC29998], the record shows infection score, replicate 1 = 24.1; cell count, replicate 1 = 6128.
Depletion of CG18210 (retired record) [DRSC19795] came out at: infection score, replicate 1 = 2.54; cell count, replicate 1 = 6334.
CG18210 (retired record) [DRSC25333] gave infection score, replicate 1 = 1.59; cell count, replicate 1 = 6176.
For Peritrophin-15a [DRSC02636], the values are infection score, replicate 1 = 4.31; cell count, replicate 1 = 5966.
Peritrophin-15a [DRSC29171] gave infection score, replicate 1 = 11.2; cell count, replicate 1 = 3521.
smog [DRSC00334] scored infection score, replicate 1 = 31.5; cell count, replicate 1 = 6600.
Depletion of smog [DRSC23053] gave: infection score, replicate 1 = 2.81; cell count, replicate 1 = 6158.
Silencing of smog [DRSC27223] gave: infection score, replicate 1 = 15.1; cell count, replicate 1 = 4837.
With knock-down of Pex2 (Peroxin 2) [DRSC10770], the record shows infection score, replicate 1 = 4.47; cell count, replicate 1 = 6892.
For Nepl6 (Neprilysin-like 6) [DRSC03242], the values are infection score, replicate 1 = 19.7; cell count, replicate 1 = 5266.
Against Nepl6 (Neprilysin-like 6) [DRSC26260], the entry reads infection score, replicate 1 = 15.7; cell count, replicate 1 = 5002.
For CG31751 [DRSC02464], the entry reads infection score, replicate 1 = 2.23; cell count, replicate 1 = 6088.
Against CG31751 [DRSC02465], the entry reads infection score, replicate 1 = 9.5; cell count, replicate 1 = 4810.
Silencing of CG32554 [DRSC22713] came out at: infection score, replicate 1 = 5.58; cell count, replicate 1 = 6507.
Knock-down of CG32554 [DRSC29616] resulted in: infection score, replicate 1 = 26; cell count, replicate 1 = 5363.

Quoted from above (3 entries):
CG31751 [DRSC02465] | infection score, replicate 1 = 9.5; cell count, replicate 1 = 4810
CG32554 [DRSC22713] | infection score, replicate 1 = 5.58; cell count, replicate 1 = 6507
CG32554 [DRSC29616] | infection score, replicate 1 = 26; cell count, replicate 1 = 5363
